Assay results as given in ChEMBL document CHEMBL3872213, “Synthesis and biological activity of furoxan derivatives against Mycobacterium tuberculosis” (Eur J Med Chem, 2016).

System: Mycobacterium tuberculosis
Settings: H37Rv ATCC 27294

Cc1c([N+](=O)[O-])no[n+]1[O-]
MIC90: 2.6 µM (≈ 0.377 µg/mL)

Converted amounts (≈) assume the structure as drawn.
